pKd: −log10 of the molar value.
Biological target: MERS-CoV S2 (40070-V08) (MERS-CoV) (UniProt K9N5Q8)
Test: SPR

Substance: S2P6
- pKd: 8.07
- koff: 0.0052 s⁻¹

— PMC9302814
